From PMC3568044

How the values were obtained:
[1] = system: FarR-MBP (Neisseria meningitidis M7); experiment: DNase I footprinting; settings: three sites incl. -10 promoter and TAAA repeat regions, data not shown; DNase I: protein with DNA 15 min at 37 C; recombinant protein; residues 1-146; label: 32P 5' end; probe letters rebuilt from the primers and the genome
[2] = system: FarR-MBP (Neisseria meningitidis M7); experiment: competition with a labelled probe; settings: unlabeled nadA 25-100x vs labeled nadA, 0.5 ug FarR-MBP; EMSA: 10 mM Tris-HCl pH 7.5, 0.5 mM DTT, 0.5 mM EDTA, 1 mM MgCl2, 50 mM NaCl, 0.05 ug/mL poly(dI-dC), 30 uL, room temperature 30 min; 6% PAGE at 4 C; recombinant protein; residues 1-146; label: 32P 5' end; probe letters rebuilt from the primers and the genome
[3] = target: MtrR-MBP (Neisseria meningitidis M7) (UniProt Q6RV06); experiment: competition with a labelled probe; settings: unlabeled nadA effective at 25x vs labeled nadA, 1.0 ug MtrR-MBP; EMSA: 10 mM Tris-HCl pH 7.5, 0.5 mM DTT, 0.5 mM EDTA, 1 mM MgCl2, 50 mM NaCl, 0.05 ug/mL poly(dI-dC), 30 uL, room temperature 30 min; 6% PAGE at 4 C; recombinant protein; residues 1-210; label: 32P 5' end; probe letters rebuilt from the primers and the genome
[4] = system: FarR-MBP (Neisseria meningitidis M7); experiment: EMSA; settings: at least three complexes; EMSA: 10 mM Tris-HCl pH 7.5, 0.5 mM DTT, 0.5 mM EDTA, 1 mM MgCl2, 50 mM NaCl, 0.05 ug/mL poly(dI-dC), 30 uL, room temperature 30 min; 6% PAGE at 4 C; recombinant protein; residues 1-146; label: 32P 5' end; probe letters rebuilt from the primers and the genome
[5] = target: MtrR-MBP (Neisseria meningitidis M7) (UniProt Q6RV06); experiment: EMSA; settings: EMSA: 10 mM Tris-HCl pH 7.5, 0.5 mM DTT, 0.5 mM EDTA, 1 mM MgCl2, 50 mM NaCl, 0.05 ug/mL poly(dI-dC), 30 uL, room temperature 30 min; 6% PAGE at 4 C; recombinant protein; residues 1-210; label: 32P 5' end; probe letters rebuilt from the primers and the genome

Measured: binding result

ATGCATGCTCATTACCTTTGTGAGTGGATAAAAAATGGGGCGGAAATCTTTTGTAAGTATTTTATCCCCACCAAGTTTGTTTACATATTAAAGTATATATGAAAGGAGGCATATATACAATACATTGTCGCAATTTATTTATTTATTTATTTATTTATTTATTTATTTATTTATTTATTTATTTATTTATTTAATTCTTGCAGTTAGGTAGTTCGGCATTAATATCTGTTAATATGTGCATATTATGCTGATGTCAATTCTGCCGGTGTCGTGTCTTAATTTTGTCAGGATATGGGTTGCCGTCTGAATGTTCAGACGGCCTTTTTGTCGGATTTAGATATGGTGGATAACCAATTTTTTGCCTTCGTAATCGAGGACGTCGAC (double strand) [nadA promoter]
binds: all assays above

For some assays here: The exact form of at least one protein or probe is not confirmed. For some assays here: At least one verdict was read from the data and is not stated in words by the source.
